Measured values as given in the supplement of paper PMC12669032.
Only a part is listed here, and it is no random draw.

What was measured:
Assay in all cases: growth AUC relative to DMSO control (median of replicates) (fraction); higher = more growth (less inhibition), active = hit call of the paper
Conditions in all cases: 20 µM; 24 h;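 active = AUC reduced over 20% with Padj below 0.05 in at least 2 of 3 replicates; inactive = otherwise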
[1] = system: Akkermansia muciniphila
Summary of the method: (§1)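 Gut bacterial monocultures in mGAM were treated with 20 µM compound (1% DMSO) and grown anaerobically at 37 °C in round-bottom 96-well plates from OD600 0.05. OD600 was read hourly for 24 h, with the minimum OD set to 0. Area under the growth curve was normalised to the plate median of solvent-only wells, or to row and column medians on the industrial chemical plate. Each value is the median of three biological replicates, each grown on a separate day.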

[2] = system: Bacteroides caccae
Summary of the method: as §1

[3] = system: Bacteroides clarus
Summary of the method: as §1

[4] = system: Bacteroides dorei
Summary of the method: as §1

[5] = system: Bacteroides stercoris
Summary of the method: as §1

[6] = system: Bacteroides thetaiotaomicron
Summary of the method: as §1

[7] = system: Bacteroides uniformis
Summary of the method: as §1

[8] = system: Bifidobacterium longum subsp. longum
Summary of the method: as §1

[9] = system: Clostridium difficile
Summary of the method: as §1

[10] = system: Collinsella aerofaciens
Summary of the method: as §1

[11] = system: Coprococcus comes
Summary of the method: as §1

[12] = system: Escherichia coli ED1a
Summary of the method: as §1

[13] = system: Escherichia coli IAI1
Summary of the method: as §1

[14] = system: Eubacterium rectale
Summary of the method: as §1

[15] = system: Fusobacterium nucleatum subsp. animalis
Summary of the method: as §1

[16] = system: Lactobacillus gasseri
Summary of the method: as §1

[17] = system: Lactobacillus paracasei
Summary of the method: as §1

[18] = system: Odoribacter splanchnicus
Summary of the method: as §1

[19] = system: Parabacteroides distasonis
Summary of the method: as §1

[20] = system: Parabacteroides merdae
Summary of the method: as §1

[21] = system: Roseburia intestinalis
Summary of the method: as §1

[22] = system: Streptococcus salivarius
Summary of the method: as §1

Measured: growth AUC

CCCCOP(=O)(OCCCC)OCCCC
inactive: [1] 1.13 | [2] 1 | [3] 1.04 | [4] 1 | [5] 1.14 | [6] 1.03 | [7] 1.02 | [8] 0.958 | [9] 1 | [10] 1.01 | [11] 1 | [12] 1.01 | [13] 0.992 | [14] 1.08 | [15] 1.02 | [16] 0.99 | [17] 1 | [18] 1.07 | [19] 0.955 | [20] 1.03 | [21] 0.943 | [22] 0.987

O=C1C2CC=CCC2C(=O)N1SC(Cl)(Cl)C(Cl)Cl (centres undefined)
inactive: [1] 0.918 | [2] 1.02 | [3] 0.992 | [4] 0.989 | [5] 0.972 | [6] 1.04 | [7] 1 | [8] 0.95 | [9] 1.03 | [10] 0.974 | [11] 1.01 | [12] 1.02 | [13] 1.03 | [14] 0.955 | [15] 0.889 | [16] 1.14 | [17] 0.989 | [18] 1 | [19] 0.989 | [20] 0.989 | [21] 1.01 | [22] 0.979
